# Values quoted from earlier work in paper PMC1824706.
# Chains of the proteins cited; added tags and fusions are not shown. Residues count along the entry.
# UniProt P13423, 30-196: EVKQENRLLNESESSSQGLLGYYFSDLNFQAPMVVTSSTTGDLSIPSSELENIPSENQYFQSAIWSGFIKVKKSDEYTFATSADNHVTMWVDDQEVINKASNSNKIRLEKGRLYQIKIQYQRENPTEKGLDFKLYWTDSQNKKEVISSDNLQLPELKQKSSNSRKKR
# Target: Protective antigen (Bacillus anthracis) (UniProt P13423)
substance,measurement,value
Anthrax toxin receptor 1 I domain (from UniProt Q9H6X2),Kd,130 nM
